Laboratory results as given in article PMC9482650, “Quantitative fragmentomics allow affinity mapping of interactomes” (Nature Communications, 2022).

Target: MERS E PBM (MERS coronavirus)
Assay: holdup assay

Substance: His6-MBP-SNX27 PDZ (from UniProt Q96L92 43-136) (domain or fragment)
- pKd (pKd (-log10 of Kd in M)): 4.56
